Pooled drug test results. Numbers come from NIAID ChemDB, via PubChem.

All rows: whole-cell or culture tests; organism: Vaccinia virus; read-out: EC50

ECn: concentration that inhibits the pathogen or its effect by n%. Lines come from different laboratories, so protocols vary. Blank or dashed fields: not listed here. a–b is a range or a potency band.

compound,strain,cells,value
Nc1ncnc2c1ncn2C[C@H](O)CO,,PRK,10–20 µg/mL
CCCCCCCCCCCCCCCCOCCCOP(=O)(O)CO[C@H](CO)Cn1ccc(N)nc1=O,WR,HFF,1.1 µM
Nc1ncnc2c1ncn2[C@H]1[C@H](O)[C@H](O)[C@]2(CO)O[C@H]12,,PRK,0.1 µg/mL
C[C@H](COc1cc(N)nc(N)n1)OCP(=O)(O)O,,,>720 µM
Nc1nc2c(ncn2CCOCP(=O)(O)O)c(=O)[nH]1,,Primary rabbit kidney cells,10 µg/mL
CCCCCCCCCCCCCCCCOCCCOP1(=O)CO[C@@H](Cn2ccc(N)nc2=O)CO1,Elstree,HFF,3.8 µM
Nc1ncnc2c1ncn2C[C@@H](CO)OCP(=O)(O)O,NYC,HFF,5.9 µM
Cc1cn([C@H]2C=C[C@@H](CO)O2)c(=O)[nH]c1=O,,VERO,>446 µM
NC(=O)c1csc([C@@H]2O[C@H](CO)[C@@H](O)[C@H]2O)n1,Elstree,HeLa,60 µg/mL
Nc1ccn(C[C@H]2COP(=O)(O)CO2)c(=O)n1,,VERO 76,61 µM
Nc1ccn(C[C@@H](CO)OCP(=O)(O)O)c(=O)n1,,BSC,22 µM
Nc1cc(OCCOCP(=O)(O)O)nc(N)n1,,,570 µM
Nc1nc(NCC(F)(F)F)c2ncn(CCOCP(=O)(O)O)c2n1,WR,HFF,38 µM
NC(=O)c1c[se]c([C@@H]2O[C@H](CO)[C@@H](O)[C@H]2O)n1,,VERO,3 µg/mL
Cc1cn([C@H]2C[C@H](N=[N+]=[N-])[C@@H](CO)O2)c(=O)[nH]c1=O,,HFF,>300 µM
C=CCNc1nc(N)nc2c1ncn2CCOCP(=O)(O)O,WR,HFF,23 µM
Nc1ccn(C[C@@H](CO)OCP(=O)(O)O)c(=O)n1,,VERO,18 µg/mL
CC1OP(=O)(OC[C@H]2O[C@@H](n3cc(/C=C/Br)c(=O)[nH]c3=O)C[C@@H]2O)Oc2cccc(Cl)c21,,VERO 76,>99 µg/mL
CC(C)(C)NC(=O)[C@@H]1C[C@@H]2CCCC[C@@H]2CN1C[C@@H](O)[C@H](Cc1ccccc1)NC(=O)[C@H](CC(N)=O)NC(=O)c1ccc2ccccc2n1,,HFF,>300 µM
C=CSC[C@H]1O[C@@H](n2cnc3c(N)ncnc32)[C@H](O)[C@@H]1O,,,30 µM
N#CSc1cn([C@H]2C[C@H](O)[C@@H](CO)O2)c(=O)[nH]c1=O,,PRK,4 µg/mL
CCOC(=O)CC1OP(=O)(OC[C@H]2O[C@@H](n3cc(/C=C/Br)c(=O)[nH]c3=O)C[C@@H]2O)Oc2cccc(Cl)c21,,VERO 76,>99 µg/mL
CCCCOC(=O)C(C)NP(=O)(COCCn1cnc2c(NC3CC3)nc(N)nc21)NC(C)C(=O)OCCCC,NYC,HFF,0.14 µM
C[C@H](Cn1cnc2c(N)ncnc21)OCP(=O)(O)O,,,>350 µM
Nc1nc(N)c2ncn(CCOCP(=O)(O)O)c2n1,,Primary rabbit kidney cells,20 µg/mL
Nc1nc2c(ncn2COCCO)c(=O)[nH]1,,VERO,>144 µM
Nc1ccn(C[C@@H](CO)OCP(=O)(O)O)c(=O)n1,,VERO 76,37 µM
N#Cc1cn([C@H]2C[C@H](O)[C@@H](CO)O2)c(=O)[nH]c1=O,,PRK,4 µg/mL
Nc1ccn(C[C@H]2COP(=O)(O)CO2)c(=O)n1,,HFF,0.6 µM
Nc1ncnc2c1ncn2C[C@@H](CO)OCP(=O)(O)O,,PRK,0.3–0.7 µg/mL
Nc1ccn(C[C@@H](CO)OCP(=O)(O)O)c(=O)n1,Copenhagen,HFF,46.2 µM
O=c1[nH]c(=O)n([C@H]2C[C@H](O)[C@@H](CO)O2)cc1I,,PRK,0.3 µg/mL
Nc1ccn(C[C@H]2COP(=O)(O)CO2)c(=O)n1,NYC,HFF,16 µM
Cc1cn([C@H]2C=C[C@@H](CO)O2)c(=O)[nH]c1=O,,HFF,>300 µM
CCCCOC(=O)C(C)NP(=O)(COCCn1cnc2c(N)ncnc21)NC(C)C(=O)OCCCC,Copenhagen,HFF,4.4 µM
Nc1ncnc2c1ncn2C[C@H]1COP(=O)(O)CO1,,Primary rabbit kidney cells,0.7 µg/mL